Values from PubChem BioAssay AID1259414 (Drosophila RNAi Screening Center, 2018).

Aim: 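Host factors increasing or decreasing Wolbachia levels in cultured fly cells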 (primary screen)
System: Drosophila JW18 cells infected with Wolbachia
Reagent: long dsRNA against Drosophila genes, 0.25 µg dsRNA per well of a 384-well plate
Time to read-out: 5 days
Challenge: cells persistently infected with Wolbachia before knock-down; no added drug
Detection: 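Imaged fluorescence in situ signal for Wolbachia 23S rRNA per DAPI-counted host cell, given as a robust z-score within each plate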
Direction: Wolbachia per cell robust z: higher = more Wolbachia per host cell than the plate typical
Hit rule: 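Hit when robust z is 1.5 or more, or -1.5 or less, in at least two of three replicates; excludes dsRNAs with several or no targets, genes not expressed in JW18 and well A1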
The screen tested about 24,000 reagents; below is a random part of those that have a named target and a result. Of all reagents, about 1,210 (5%) got an active call. 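Inactive calls also include excluded dsRNAs with several or no targets, genes unexpressed in JW18, and well A1, regardless of score.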 Entries without a mark were called inactive. The numbers tell different reagents against one gene apart. Names joined by + are all predicted targets of the reagent.

Knock-down of snoRNA:Me18S-A1374 + Dys resulted in: Wolbachia per cell robust z, rep 1 = 0.946; Wolbachia per cell robust z, rep 2 = -0.718; Wolbachia per cell robust z, rep 3 = -1.4.
Depletion of COX6CL (GeneID 318868) resulted in: Wolbachia per cell robust z, rep 1 = 0.779; Wolbachia per cell robust z, rep 2 = 0.659; Wolbachia per cell robust z, rep 3 = 0.355.
Fip1 (GeneID 40569) scored Wolbachia per cell robust z, rep 1 = -0.316; Wolbachia per cell robust z, rep 2 = 0.673; Wolbachia per cell robust z, rep 3 = 0.574.
With knock-down of CR1075 (GeneID 12798037), the record shows Wolbachia per cell robust z, rep 1 = 0.729; Wolbachia per cell robust z, rep 2 = 0.0965; Wolbachia per cell robust z, rep 3 = -0.914.
tll (GeneID 43656) #1 scored Wolbachia per cell robust z, rep 1 = 0.505; Wolbachia per cell robust z, rep 2 = 0.642; Wolbachia per cell robust z, rep 3 = -0.977.
With knock-down of tll (GeneID 43656) #2, the record shows Wolbachia per cell robust z, rep 1 = -0.69; Wolbachia per cell robust z, rep 2 = 0.239; Wolbachia per cell robust z, rep 3 = -1.07.
tll (GeneID 43656) #3 gave Wolbachia per cell robust z, rep 1 = 2.33; Wolbachia per cell robust z, rep 2 = 0.0652; Wolbachia per cell robust z, rep 3 = 0.294.
For nst (GeneID 39434), the values are Wolbachia per cell robust z, rep 1 = -1.44; Wolbachia per cell robust z, rep 2 = 0.0452; Wolbachia per cell robust z, rep 3 = 0.175.
Depletion of bigmax (GeneID 43293) #1 came out at: Wolbachia per cell robust z, rep 1 = 0.178; Wolbachia per cell robust z, rep 2 = -0.118; Wolbachia per cell robust z, rep 3 = -0.238.
bigmax (GeneID 43293) #2 scored Wolbachia per cell robust z, rep 1 = -0.321; Wolbachia per cell robust z, rep 2 = 1.19; Wolbachia per cell robust z, rep 3 = -0.178.
Silencing of Sfp51E (GeneID 8674008) #1 gave: Wolbachia per cell robust z, rep 1 = 0.833; Wolbachia per cell robust z, rep 2 = -0.259; Wolbachia per cell robust z, rep 3 = -0.376.
After knock-down of Sfp51E (GeneID 8674008) #2, the record shows Wolbachia per cell robust z, rep 1 = 0.425; Wolbachia per cell robust z, rep 2 = 0.309; Wolbachia per cell robust z, rep 3 = 0.839.

Part of the list above in another layout:
target | reagent no. | Wolbachia per cell robust z, rep 1 | Wolbachia per cell robust z, rep 2 | Wolbachia per cell robust z, rep 3
bigmax (GeneID 43293) | 2 | -0.321 | 1.19 | -0.178
Sfp51E (GeneID 8674008) | 1 | 0.833 | -0.259 | -0.376

The results go on:
Knock-down of CG15023 (GeneID 38550) #1 gave: Wolbachia per cell robust z, rep 1 = 0.183; Wolbachia per cell robust z, rep 2 = 0.287; Wolbachia per cell robust z, rep 3 = 0.707.
CG15023 (GeneID 38550) #2 gave Wolbachia per cell robust z, rep 1 = -0.0716; Wolbachia per cell robust z, rep 2 = -0.214; Wolbachia per cell robust z, rep 3 = 0.599.
Knock-down of spi (GeneID 35253) #1 resulted in: Wolbachia per cell robust z, rep 1 = 0.505; Wolbachia per cell robust z, rep 2 = 0.627; Wolbachia per cell robust z, rep 3 = 0.882.
Depletion of spi (GeneID 35253) #2 resulted in: Wolbachia per cell robust z, rep 1 = -2.31 (active); Wolbachia per cell robust z, rep 2 = -4.01; Wolbachia per cell robust z, rep 3 = -0.697.
Knock-down of Vha68-2 (GeneID 45012) #1 came out at: Wolbachia per cell robust z, rep 1 = -0.373; Wolbachia per cell robust z, rep 2 = -5.75; Wolbachia per cell robust z, rep 3 = -0.102.
After knock-down of Vha68-2 (GeneID 45012) #2, the screen gave Wolbachia per cell robust z, rep 1 = 1.07; Wolbachia per cell robust z, rep 2 = 1.95; Wolbachia per cell robust z, rep 3 = 0.771.
CR33013 (GeneID 14462581) #1 scored Wolbachia per cell robust z, rep 1 = -0.431; Wolbachia per cell robust z, rep 2 = -2.46; Wolbachia per cell robust z, rep 3 = -0.194.
With knock-down of CR33013 (GeneID 14462581) #2, the screen gave Wolbachia per cell robust z, rep 1 = 0.912; Wolbachia per cell robust z, rep 2 = 0.688; Wolbachia per cell robust z, rep 3 = -0.533.
Silencing of Gclc (GeneID 53581) gave: Wolbachia per cell robust z, rep 1 = 0.0689; Wolbachia per cell robust z, rep 2 = 1.66; Wolbachia per cell robust z, rep 3 = 0.714.
Depletion of Ogdh (GeneID 39899) #1 came out at: Wolbachia per cell robust z, rep 1 = 0.693; Wolbachia per cell robust z, rep 2 = 0.154; Wolbachia per cell robust z, rep 3 = 0.618.
With knock-down of Ogdh (GeneID 39899) #2 the results were Wolbachia per cell robust z, rep 1 = 0.537; Wolbachia per cell robust z, rep 2 = -0.547; Wolbachia per cell robust z, rep 3 = 0.913.
With knock-down of CG33688 (GeneID 3772065), the record shows Wolbachia per cell robust z, rep 1 = 0.908; Wolbachia per cell robust z, rep 2 = -0.224; Wolbachia per cell robust z, rep 3 = 0.727.
